How the values were obtained:
[1] = Three-dimensional structure by X-ray crystallography; assay type: physicochemical
Source text: In the example of the synthetic peptide having the amino acid sequence of SEQ ID NO:35, generally speaking, the majority of amino acid substitutions in the “a” position and “d” position were either leucine for isoleucine, or isoleucine for leucine, or a less bulky amino acid (e.g., valine) for either isoleucine or leucine. In comparing Table 1 with Table 2, and the biochemical and antiviral properties of the synthetic peptide having the amino acid sequence of SEQ ID NO:32 with the synthetic peptide having the amino acid sequence of SEQ ID NO:35, it was an unexpected result that by making these changes in the “a” position of at least one heptad of the plurality of heptads, and in the “d” position of at least one heptad of the plurality of heptads that improved is stability of the peptide as measured by a higher Tm (e.g., despite the reduction in number of leucine zipper-like motifs). The three-dimensional structure of SEQ ID NO:35 was determined by X-ray crystallography using methods standard in the art.

[2] = Oligomerization state by sedimentation equilibrium (analytical ultracentrifuge); assay type: physicochemical; details: in solution, 4° C.
Protocol: Oligomerization state was assessed by using methods standard in the art for performing sedimentation equilibrium experiments and for analysis of the resultant data. In that regard, sedimentation equilibrium experiments were performed over a concentration range of synthetic peptide (1 μM to […]) as follows. Briefly, six-channel cells (12 mm optical path length) were used with an An-60 Ti rotor operated at 13,500 rpm, 18,000 rpm, 22,000 rpm, and 35,000 rpm) in an analytical ultracentrifuge at 4° C. The cell radii were scanned using 0.001 cm steps with 10 averages/scan at 3 different wavelengths (235 nm, 240 nm, 280 nm). Data obtained with solutions containing synthetic peptide was analyzed using a single species model to determine a weight-averaged molecular weight (MW). Diagnostic plots of MW/MW0 vs. rpm/rpm0 and MW vs. radial concentration were used to test for sample homogeneity. When systemic residuals or a MW higher than monomer molecular weight indicated the presence of self-association, associative models were investigated. The suitability of a model (goodness of fit) was judged by the trends observed in the residuals.

[3] = tested on: HR2 peptide (SEQ ID NO:33) derived from the HR2 region of HIV-1 gp41; test: HR2 peptide binding, fluorescence polarization assay; details: ability to complex with HR2 peptide denoted as yes
Source text: (§1) These include a protein chip assay (using Biacore analysis) in which surface plasmon resonance is used to detect the binding, and kinetics thereof, between a synthetic peptide and an HR2 peptide; and a fluorescence polarization assay. In the fluorescence polarization assay, a detectable moiety comprising a fluorescent dye (e.g., rhodamine and/or fluorescein) was used to label HR2 peptide, and the assay was then allowed to proceed under sufficient conditions and for a sufficient period of time for labeled peptide to bind to HR1 peptide, or synthetic peptide (or trimer formed therefrom).

[4] = tested on: HR2 peptide derived from the HR2 region of HIV-1 gp41; test: HR2 peptide binding kinetics, protein chip assay (Biacore, surface plasmon resonance)
Source text: as §1

[5] = Thermal stability (Tm) by CD signal at 222 nm; assay type: physicochemical; details: at 10 μM
Protocol: Helicity was assessed by circular dichroism (“CD”) as follows. Briefly, CD spectra were obtained using a spectrometer equipped with a thermoelectric temperature controller. The spectra was obtained at 25° C. with 0.5 nanometer (nm) steps from 200 to 260 nm, with a 1.5 nm bandwith, and a typical averaging time of 4 seconds/step. After the cell/buffer blank was subtracted, spectra were smoothed using a third-order least-squares polynomial fit with a conservative window size to give random residuals. Raw ellipticity values were converted to mean residue ellipticity using standard methods, and plotted was the wavelength (from 200 to 260 nm) versus [θ]×10^−3 (degrees cm^2/dmol). Percent helicity values were then calculated using standard methods. Assessment of thermal stability was performed by monitoring the change in CD signal at 222 nm as temperature was raised in 2° C. steps, with 1 minute equilibration times. The thermal stability for each sample (e.g., synthetic peptide) was represented by the transition temperature (Tm) determined by the derivative method.

Row | Compound | Oligomerization as determined by crystallography [1] | Oligomerization [2] | HR2 peptide binding [3] | HR2 peptide binding K off [4] | HR2 peptide binding K on [4] | Stability Tm [5]
1 | CC[C@H](C)[C@H](NC(=O)[C@H](Cc1ccc(O)cc1)NC(=O)[C@H](CCCNC(=N)N)NC(=O)[C@H](CCC(=O)O)NC(=O)[C@H](CC(C)C)NC(=O)[C@H](C)NC(=O)[C@H](CC(C)C)NC(=O)[C@@H](NC(=O)[C@H](CCCNC(=N)N)NC(=O)[C@H](C)NC(=O)[C@H](CCC(N)=O)NC(=O)[C@H](CC(C)C)NC(=O)[C@H](CCC(N)=O)NC(=O)[C@H](CCCCN)NC(=O)[C@@H](NC(=O)CNC(=O)[C@H](Cc1c[nH]c2ccccc12)NC(=O)[C@@H](NC(=O)[C@H](CC(C)C)NC(=O)[C@H](C)NC(=O)[C@H](CCC(N)=O)NC(=O)[C@@H](NC(=O)[C@H](C)NC(=O)[C@H](Cc1c[nH]cn1)NC(=O)[C@H](CCC(N)=O)NC(=O)[C@@H](NC(=O)[C@H](C)NC(=O)[C@H](CCC(=O)O)NC(=O)[C@H](CC(C)C)NC(=O)[C@H](C)NC(=O)[C@H](CCCNC(=N)N)NC(=O)[C@H](CC(C)C)NC(=O)[C@@H](NC(=O)[C@H](CC(N)=O)NC(=O)[C@H](CC(N)=O)NC(=O)[C@H](CCC(N)=O)NC(=O)[C@H](CCC(N)=O)NC(=O)[C@H](CCC(N)=O)NC(=O)[C@@H](NC(=O)[C@H](CC(C)C)NC(=O)CNC(=O)[C@H](CO)NC(=O)[C@@H](NC(=O)[C@H](CC(C)C)NC(=O)[C@H](CCC(N)=O)NC(=O)[C@H](CCCNC(=N)N)NC(=O)[C@H](C)NC(=O)[C@H](CCC(N)=O)NC(C)=O)C(C)C)C(C)C)[C@@H](C)CC)[C@@H](C)O)C(C)C)C(C)C)C(C)C)C(C)C)C(=O)N[C@@H](CCCCN)C(N)=O [SEQ ID NO: 35] | self-assembles into trimers |  |  |  |  | 
2 | CC[C@H](C)[C@H](NC(=O)CNC(=O)[C@H](Cc1c[nH]c2ccccc12)NC(=O)[C@@H](NC(=O)[C@@H](NC(=O)[C@H](C)NC(=O)[C@H](CCC(N)=O)NC(=O)[C@H](CC(C)C)NC(=O)[C@H](C)NC(=O)[C@H](Cc1c[nH]cn1)NC(=O)[C@H](CCC(N)=O)NC(=O)[C@H](CCC(N)=O)NC(=O)[C@H](C)NC(=O)[C@H](CCC(=O)O)NC(=O)[C@@H](NC(=O)[C@H](C)NC(=O)[C@H](CCCNC(=N)N)NC(=O)[C@H](CC(C)C)NC(=O)[C@H](CC(C)C)NC(=O)[C@H](CC(N)=O)NC(=O)[C@H](CC(N)=O)NC(=O)[C@H](CCC(N)=O)NC(=O)[C@H](CCC(N)=O)NC(=O)[C@H](CCC(N)=O)NC(=O)[C@@H](NC(=O)[C@@H](NC(=O)CNC(=O)[C@H](CO)NC(=O)[C@H](CC(C)C)NC(=O)[C@H](CC(C)C)NC(=O)[C@H](CCC(N)=O)NC(=O)[C@H](CCCNC(=N)N)NC(=O)[C@H](C)NC(=O)[C@H](CCC(N)=O)NC(C)=O)[C@@H](C)CC)C(C)C)[C@@H](C)CC)[C@@H](C)O)C(C)C)C(=O)N[C@@H](CCCCN)C(=O)N[C@@H](CCC(N)=O)C(=O)N[C@@H](CC(C)C)C(=O)N[C@@H](CCC(N)=O)C(=O)N[C@@H](C)C(=O)N[C@@H](CCCNC(=N)N)C(=O)N[C@H](C(=O)N[C@@H](CC(C)C)C(=O)N[C@@H](C)C(=O)N[C@H](C(=O)N[C@@H](CCC(=O)O)C(=O)N[C@@H](CCCNC(=N)N)C(=O)N[C@@H](Cc1ccc(O)cc1)C(=O)N[C@@H](CC(C)C)C(=O)N[C@@H](CCCCN)C(N)=O)C(C)C)[C@@H](C)CC [SEQ ID NO: 32] |  | trimeric | retain the ability to complex with peptides derived from the HR2 region | 1.9 × 10^−3/ | 6.1 × 10^5 | 
3 | CC[C@H](C)[C@H](NC(=O)CNC(=O)[C@H](Cc1c[nH]c2ccccc12)NC(=O)[C@@H](NC(=O)[C@@H](NC(=O)[C@H](C)NC(=O)[C@H](CCC(N)=O)NC(=O)[C@H](CC(C)C)NC(=O)[C@H](C)NC(=O)[C@H](Cc1c[nH]cn1)NC(=O)[C@H](CCC(N)=O)NC(=O)[C@@H](NC(=O)[C@H](C)NC(=O)[C@H](CCC(=O)O)NC(=O)[C@@H](NC(=O)[C@H](C)NC(=O)[C@H](CCCNC(=N)N)NC(=O)[C@H](CC(C)C)NC(=O)[C@H](CC(C)C)NC(=O)[C@H](CC(N)=O)NC(=O)[C@H](CC(N)=O)NC(=O)[C@H](CCC(N)=O)NC(=O)[C@H](CCC(N)=O)NC(=O)[C@H](CCC(N)=O)NC(=O)[C@@H](NC(=O)[C@@H](NC(=O)CNC(=O)[C@H](CO)NC(=O)[C@H](CC(C)C)NC(=O)[C@H](CC(C)C)NC(=O)[C@H](CCC(N)=O)NC(=O)[C@H](CCCNC(=N)N)NC(=O)[C@@H](NC(=O)[C@H](CCC(N)=O)NC(C)=O)[C@@H](C)CC)[C@@H](C)CC)C(C)C)[C@@H](C)CC)[C@@H](C)CC)[C@@H](C)CC)C(C)C)C(=O)N[C@@H](CCCCN)C(=O)N[C@@H](CCC(N)=O)C(=O)N[C@@H](CC(C)C)C(=O)N[C@@H](CCC(N)=O)C(=O)N[C@@H](C)C(=O)N[C@@H](CCCNC(=N)N)C(=O)N[C@H](C(=O)N[C@@H](CC(C)C)C(=O)N[C@@H](C)C(=O)N[C@H](C(=O)N[C@@H](CCC(=O)O)C(=O)N[C@@H](CCCNC(=N)N)C(=O)N[C@@H](Cc1ccc(O)cc1)C(=O)N[C@@H](CC(C)C)C(=O)N[C@@H](CCCCN)C(N)=O)C(C)C)[C@@H](C)CC [SEQ ID NO: 36] | Trimer* |  | retain HIV gp41 HR2 binding activity | 3.3 × 10^−3 | 4.3 × 10^5 | Tm > 97 °C

Reference: US20040076637A1, “HIV-derived HR1 peptides modified to form stable trimers, and their use in therapy to inhibit transmission of human immunodeficiency virus” (priority 2002, published 2004)
